Results: PMC10470515

Experiments:
[1] = system: NceR-His (Neisseria gonorrhoeae FA19); experiment: DNase I footprinting; details: three protected sites, one within the -35 region, one within a MisR-binding site, 2, 4, 8 ug NceR; recombinant protein; residues 1-99; protein details: N-terminal His (pET-15b); label: 5' 6-FAM (coding strand), 5' HEX (template strand); probe letters rebuilt from the primers and the genome
[2] = system: NceR-His (Neisseria gonorrhoeae FA19); experiment: EMSA; details: complete shift with 5 ug NceR and 5 ng probe, 0.156-20 ug tested; EMSA: 5 ng 32P probe, 6% native PAGE at 4 C, pH 8.5 (binding buffer not given); recombinant protein; residues 1-99; protein details: N-terminal His (pET-15b); label: 32P; probe letters rebuilt from the primers and the genome
[3] = system: NceR-His (Neisseria gonorrhoeae FA19); experiment: competition with a labelled probe; details: unlabeled ompA probe inhibits binding to labeled ompA probe, 5 ug NceR; EMSA: 5 ng 32P probe, 6% native PAGE at 4 C, pH 8.5 (binding buffer not given); recombinant protein; residues 1-99; protein details: N-terminal His (pET-15b); label: 32P; probe letters rebuilt from the primers and the genome

Sequence: AGTGAATCGGTTCCGTACTATCTGTACTGTCTGCGGCTTCGCCGCCTTGTCCTGATTTTTGTTAATCCACTATATTCCTAAACCCACCATCCGCGCCTGCCGCACGTACACGTCGACAAACCGAAAATATGGCTGCTCGGCGGCATCGTCGGCGCGTGGGGCTGCCATAAAATCGGACACCATTTCTCCCTGCCCGTTTCGGCAGTATTGCCGATACCGGGTGCAGGCTCGGTCGGCTACGATGTGAAGGTACGTTTTTTTGCGGATGTGGCTGCGGTTTCGGCGCAAATCACGATAAACCCGCGTTGTTTCGGGAAAAATCGGGTAATTTCAGGTTAATTGCACTTTTTCAGACGGCATGATTGCTTATAGTTGTACGGTTTGACATATGCACGGAAGGAAACGCCATGACTTTC (double strand) [ompA promoter footprint probe]
- binding result [1]: binds

Sequence: CCGCCTTAGCTCAAAGAGAACGATTCTCTAAGGTGCTGAAGCACCAAGTGAATCGGTTCCGTACTATCTGTACTGTCTGCGGCTTCGCCGCCTTGTCCTGATTTTTGTTAATCCACTATATTCCTAAACCCACCATCCGCGCCTGCCGCACGTACACGTCGACAAACCGAAAATATGGCTGCTCGGCGGCATCGTCGGCGCGTGGGGCTGCCATAAAATCGGACACCATTTCTCCCTGCCCGTTTCGGCAGTATTGCCGATACCGGGTGCAGGCTCGGTCGGCTACGATGTGAAGGTACGTTTTTTTGCGGATGTGGCTGCGGTTTCGGCGCAAATCACGATAAACCCGCGTTGTTTCGGGAAAAATCGGGTAATTTCAGGTTAATTGCACTTTTTCAGACGGCATGATTGCTTATAGTTGTACGGTTTGACATATGCACGGAAGGAAACGCCATGACTTTCTTCAAACCCTTTACCGTCGTGCTGACCGCATCCGCACTCGCGCTTTCCGGCTGCGTTGCCGACCCCGTAACCGGACAGCAGTCCCCAAACAAATCCGCCATGTACGGTTTGGGTGGCGGAATTCTTAA (double strand) [ompA promoter EMSA probe (580 bp)]
- binding result [2]: binds
- binding result [3]: binds
